Results from paper PMC4976356, “Structural insight into β-Clamp and its interaction with DNA Ligase in Helicobacter pylori” (Scientific Reports, 2016).

Test system: Hpβ-clamp
Test: SAXS of β-clamp, ligase and their mixture
Design: species or system Helicobacter pylori
Details: Figure S5

B1: β-clamp: β-clamp from Helicobacter pylori 26695 (protein)
chain: MKISVSKNDLENALRYLQAFLDKKDASSIASHIHLEVIKEKLFLKASDSDIGLKSYIFTQSSDKEGVGTINGKKFLDIISCLKDSNIILETKDDSLAIKQNKSSFKLPMFDADEFPEFPVIDPKVSIEVNAPFLVDAFKKIAPVIEQTSHKRELAGILMQFDQKHQTLSVVGTDTKRLSYTQLEKISIHSTEEDISCILPKRALLEILKLFYENFSFKSDGMLAVIENEMHTFFTKLIDGNYPDYQKILPKEYISSFTLGKEEFKESIKLCSSLSSTIKLTLEKNNALFESLDSEHSETAKTSVEIEKGLDIEKAFHLGVNAKFFLEALNALGTTQFVLRCNEPSSPFLIQESLDEKQSHLNAKISTLMMPITL
modifications: left off: His tag (from the vector pET 28(b) and the Ni Sepharose column), end not stated, state not stated
  Dmax: 9.8 nM
  radius of gyration (Rg): 3.87
